Consider 1 substance from PMC5938747.

Data set [1] concerns Nc1ccn([C@@H]2O[C@H](COP(=O)(O)OP(N)(=O)O)[C@@H](O)[C@H]2O)c(=O)n1. In words: purified protein. The settings on record: 10 mM ATP, pH 8.0, 25 °C.
Data set [2] deals with Nc1ncnc2c1ncn2[C@@H]1O[C@H](COP(=O)(O)OP(=O)(O)OP(=O)(O)O)[C@@H](O)[C@H]1O. In words: purified protein. Particulars: 15 mM CDP-NH2, pH 8.0, 25 °C.

In general, Km refers to the substrate concentration at which the rate is half of its maximum. Broadly, the kcat is the maximal rate divided by the concentration of active sites. Usually kcat/Km stands for the second-order rate constant that governs catalysis at low substrate concentration. As for “Cj1415 (cytidine diphosphoramidate kinase, CDK) (Campylobacter jejuni subsp. jejuni NCTC 11168 = ATCC 700819; S85A)”, in data set [1], the Km was 4400 ± 400 µM, the kcat amounted to 1.6 s⁻¹ and the kcat/Km was determined as 360 M⁻¹ s⁻¹. In data set [2], the Km is 700 ± 100 µM, the turnover number (kcat) came to 1.6 s⁻¹ and the kcat/Km worked out at 2300 M⁻¹ s⁻¹.
